Measured values from several laboratories, pooled; numbers as filed in NIAID ChemDB.

Shared fields: whole-cell or culture tests; species: Hepatitis C virus; read-out: EC50

Lines come from different laboratories, so protocols vary.

compound | strain or isolate | method | value
CC1CCC(C(=O)N(c2cc(-c3ccc(NC(=O)c4cscn4)cc3)sc2C(=O)[O-])C(C)C)CC1.[NH4+] | 1a | replicon | <0.5 µM
CCCc1cc(C(=O)N2c3cccc(O)c3NC3=C(C(=O)CC(C)(C)C3)C2c2ccc(OCc3ccccc3)cc2F)no1 | 1b | luciferase / reporter gene / replicon | 5.77 µM
CN1CCN(c2ccc(CNc3nc(NCC(F)(F)F)c4nc(-c5ccc(F)cc5)ccc4n3)cc2)CC1 | - | replicon | <0.1 µM
Cc1ccc(C2Nc3cccc(O)c3NC3=C2C(=O)CC(C)(C)C3)c2ccccc12 | 1b | luciferase / reporter gene / replicon | >32 µM
CCOc1nc(NCCc2ccccc2)nc2ccc(-c3ccc(F)cc3)nc12 | - | replicon | <0.1 µM
CC1CCC(C(=O)N(c2cc(-c3cnc(NC(=O)c4cscn4)c(Cl)c3)sc2C(=O)O)C(C)C)CC1 | 1a | replicon | <0.5 µM
CC1(C)CC(=O)C2=C(C1)Nc1c(O)cccc1N(C(=O)C1CCCC1)[C@H]2c1ccc(OCc2ccccc2)cc1F | 1b | luciferase / reporter gene / replicon | 0.23 µM
CCOc1nc(NCc2ccc(S(N)(=O)=O)cc2)nc2ccc(-c3ccc(S(N)(=O)=O)cc3)nc12 | - | replicon | <0.1 µM
CC1(C)CC(=O)C2=C(C1)Nc1c(O)cccc1N(C(=O)NCCC(=O)O)C2c1ccc(OCc2ccccc2)cc1Cl | 1b | luciferase / reporter gene / replicon | >100 µM
CC1CCC(C(=O)N(c2cc(-c3ccc(NC(=O)c4ccccn4)nc3)sc2C(=O)O)C(C)C)CC1 | 1b | replicon | <0.5 µM
CCS(=O)(=O)NC(=O)c1c(-c2ccc[nH]c2=O)c2c3occc3ccc2n1Cc1ccccc1F | - | replicon | <0.5 µM
CC1(C)CC(=O)C2=C(C1)Nc1c(O)cccc1N(C(=O)CC(=O)NS(=O)(=O)C1CC1)C2c1ccc(Oc2ccccc2Br)cc1Cl | 1b | luciferase / reporter gene / replicon | >100 µM
NC(=O)c1ccc(-c2ccc3nc(NCc4ccc(F)cc4)nc(NCC(F)(F)F)c3n2)cc1 | - | replicon | <0.1 µM
CC(=O)N1c2cccc(O)c2NC2=C(C(=O)CC(C)(C)C2)[C@H]1c1ccc(OCc2ccccc2)c(Cl)c1 | 1b | luciferase / reporter gene / replicon | 2.05 µM
NS(=O)(=O)c1ccc(CNc2nc(OC3CCC3)c3nc(-c4ccc(F)cc4)ccc3n2)cc1 | - | replicon | <0.1 µM
NC(=O)c1ncc(Cn2c(C(=O)O)c(-c3ccc[nH]c3=O)c3c4occc4c(F)cc32)s1 | - | replicon | 0.5–1.5 µM
CC1(C)CC(=O)C2=C(C1)Nc1c(O)cccc1N(C(=O)CCC(=O)NC1CSCC1O)C2c1ccc(OCc2ccccc2)cc1Cl | 1b | luciferase / reporter gene / replicon | 43.3 µM
CS(=O)(=O)NC(=O)c1c(-c2ccc[nH]c2=O)c2c3occc3ccc2n1Cc1ccccc1F | - | replicon | <0.5 µM
CC1CCC(C(=O)N(c2cc(-c3ccc(NC(=O)c4cncc(F)c4)cc3)sc2C(=O)O)C(C)C)CC1 | 1a | replicon | >0.5 µM
O=C(O)c1c(-c2ccc[nH]c2=O)c2c3occc3c(F)cc2n1Cc1cc2[nH]c(=O)[nH]c2cc1Cl | - | replicon | <0.5 µM
NC(=O)COc1ccc2c(c1)S(=O)(=O)N=C(c1c(O)c3cc(F)ccc3n(CCC3CC3)c1=O)N2 | 1b 45970 | replicon | 0.045 µM
O=C(O)c1c(-c2ccc[nH]c2=O)c2c3occc3c(F)cc2n1Cc1cc2c(=O)[nH]cnc2cc1F | - | replicon | <0.5 µM
CC1CCC(C(=O)N(c2cc(-c3ccc(NC(=O)c4ccn[nH]4)cc3)sc2C(=O)O)C2CCC2)CC1 | 1a | replicon | <0.5 µM
CS(=O)(=O)NC(=O)c1c(-c2ccc[nH]c2=O)c2c3occc3cc(F)c2n1Cc1cc(F)ccc1F | - | replicon | 0.5–1.5 µM
CC1(C)CC(=O)C2=C(C1)Nc1c(O)cccc1N(C(=O)c1cscn1)[C@H]2c1ccc(OCc2ccccc2)cc1F | 1b | luciferase / reporter gene / replicon | 0.71 µM

The last 2 rows once more:

compound | strain or isolate | method | value
CS(=O)(=O)NC(=O)c1c(-c2ccc[nH]c2=O)c2c3occc3cc(F)c2n1Cc1cc(F)ccc1F | - | replicon | 0.5–1.5 µM
CC1(C)CC(=O)C2=C(C1)Nc1c(O)cccc1N(C(=O)c1cscn1)[C@H]2c1ccc(OCc2ccccc2)cc1F | 1b | luciferase / reporter gene / replicon | 0.71 µM

Two numbers with a dash give a range or band. ECn is the concentration giving n% inhibition of infection, replication or growth. Blank or dashed fields: not listed here.